Anti-infective test results gathered from many reports (values: NIAID ChemDB through PubChem).

All rows: growth or infection tests; organism: HIV-1; cells: CEM + CEM-SS; read-out: EC50

Rows are shuffled and stem from different studies. An empty or dashed field is not shown. ECn: concentration that inhibits the pathogen or its effect by n%.

structure	strain or isolate	mutations	read by	value
CCCc1cc(=O)oc2c3c(c4c(c12)OC(C)(C)C=C4)O[C@H](C)[C@@H](C)[C@@H]3O	NL4-3	RT-T139I	XTT	1.7 µM
Cc1cn([C@H]2C[C@H](N=[N+]=[N-])[C@@H](CO)O2)c(=O)[nH]c1=O	NL4-3	RT-K103E	cytopathic effect / XTT	0.002 µM
C/C=C/CSc1cc(NC(=S)c2ccsc2C)ccc1Cl	E BPTU-resistant (RT Y181C)	RT-Y181C	cytopathic effect / XTT	>2 µM
Cc1cn([C@H]2C[C@H](N=[N+]=[N-])[C@@H](CO)O2)c(=O)[nH]c1=O	IIIB		cytopathic effect / XTT	0.003 µM
Cc1ccnc2c1NC(=O)c1cccnc1N2C1CC1	NL4-3	RT-Y181C	cytopathic effect / XTT	1.3 µM
Cc1ccnc2c1NC(=O)c1cccnc1N2C1CC1	Oxathiin carboxanilide-resistant RT L100I	RT-L100I	cytopathic effect / XTT	0.1 µM
CCc1c(Sc2ccccn2)n(COCc2ccccc2)c(=O)[nH]c1=O	NL4-3	RT-V106I	cytopathic effect / XTT	0.92 µM
CC(=O)c1ccc(C)cc1NC(C(N)=O)c1c(Cl)cccc1Cl	Dihydrocostatolide-resistant (RT-L100I)	RT-L100I	XTT	0.02 µM
Cc1occc1C(=S)Nc1ccc(Cl)c(/C=N/OC(C)(C)C)c1	NL4-3 (RT V106I)	RT-V106I	cytopathic effect / XTT	2.7 µM
Fc1cccc(F)c1C1SCc2nc3ccccc3n21	IIIB HEPT-resistant (RT P236L)	RT-P236L	cytopathic effect / XTT	0.3 µM
Cc1cn([C@H]2C[C@H](N=[N+]=[N-])[C@@H](CO)O2)c(=O)[nH]c1=O	IIIB		XTT	0.003 µM
CCCc1cc(=O)oc2c3c(c4c(c12)OC(C)(C)C=C4)O[C@@H](C)[C@H](C)[C@@H]3O	UC82-R (RT-Y181C)	RT-Y181C	cytopathic effect / XTT	0.1 µM
Cc1cn([C@H]2C[C@H](N=[N+]=[N-])[C@@H](CO)O2)c(=O)[nH]c1=O	C		cytopathic effect / MTT	0.007 µM
CCCc1cc(=O)oc2c3c(c4c(c12)OC(C)(C)C=C4)O[C@@H](C)[C@H](C)[C@@H]3O	NL4-3	RT-V106I	XTT	0.2 µM
C1=Nc2ccccc2SN1	IIIB	RT-Y181C	cytopathic effect / XTT	>73 µM

Repeating the final 2 entries:

structure | strain or isolate | mutations | read by | value
CCCc1cc(=O)oc2c3c(c4c(c12)OC(C)(C)C=C4)O[C@@H](C)[C@H](C)[C@@H]3O | NL4-3 | RT-V106I | XTT | 0.2 µM
C1=Nc2ccccc2SN1 | IIIB | RT-Y181C | cytopathic effect / XTT | >73 µM